PubChem BioAssay AID1259414, Drosophila RNAi Screening Center, 2018
Aim: 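Fly genes that alter Wolbachia amount inside host cells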 (primary screen). System: Drosophila JW18 cells infected with Wolbachia. Knock-down reagent: long dsRNA against Drosophila genes, 0.25 µg dsRNA per well of a 384-well plate. Duration: 5 days. Challenge: cells persistently infected with Wolbachia before knock-down; no added drug. Measured: 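Imaged fluorescence in situ signal for Wolbachia 23S rRNA per DAPI-counted host cell, given as a robust z-score within each plate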. Scale: Wolbachia per cell robust z: higher = more Wolbachia per host cell than the plate typical. Hit rule: 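Active if absolute robust z reaches 1.5 in two or more of three replicates, leaving out multi- or no-target dsRNAs, genes unexpressed in JW18 and A1 wells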.
The screen tested about 24,000 reagents; shown is a random part of those with a known target gene and a result. Of all reagents, about 1,210 (5%) were called active. 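Inactive calls also include excluded dsRNAs with several or no targets, genes unexpressed in JW18, and well A1, regardless of score.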 Names joined by + are all predicted targets of the reagent.

gene knocked down | dsRNA | Wolbachia per cell robust z, rep 1 | Wolbachia per cell robust z, rep 2 | Wolbachia per cell robust z, rep 3 | activity call
CG32301 | DRSC08613 | -3.2 | 0.377 | 0.0558 | inactive
CG7646 | DRSC11232 | 0.637 | -1.14 | -0.864 | inactive
Gr94a | DRSC13597 | 0.318 | 1.24 | 0.696 | inactive
Asator | DRSC17136 | -0.32 | -2.56 | -2.56 | active
PIG-Wa | DRSC00728 | 0.659 | 0.0804 | -6.46 | inactive
nebu | DRSC09807 | -8.11 | 0.154 | 0.211 | inactive
nebu | DRSC09808 | 0.821 | -0.61 | 0.398 | inactive
Gr64b + Gr64c | DRSC27568 | 0.268 | -0.463 | 0.754 | inactive
RpL22 | DRSC18707 | 1.28 | -6.16 | 1.53 | inactive
RpL22 | DRSC22819 | 1.57 | 1.25 | -0.825 | inactive
tw | DRSC18537 | -0.844 | -0.875 | 0.417 | inactive
CG14625 | DRSC18633 | 1.37 | 0.311 | -0.913 | inactive
CG14625 | DRSC25191 | 0.608 | -0.258 | -0.521 | inactive

No new results follow: entries from further up.
gene knocked down | dsRNA | Wolbachia per cell robust z, rep 1 | Wolbachia per cell robust z, rep 2 | Wolbachia per cell robust z, rep 3 | activity call
RpL22 | DRSC22819 | 1.57 | 1.25 | -0.825 | inactive
tw | DRSC18537 | -0.844 | -0.875 | 0.417 | inactive
CG14625 | DRSC18633 | 1.37 | 0.311 | -0.913 | inactive
CG14625 | DRSC25191 | 0.608 | -0.258 | -0.521 | inactive

Additional results follow.
gene knocked down | dsRNA | Wolbachia per cell robust z, rep 1 | Wolbachia per cell robust z, rep 2 | Wolbachia per cell robust z, rep 3 | activity call
CG11298 | DRSC04100 | -0.613 | -4.42 | -3.88 | inactive
und | DRSC03629 | -1.51 | -7.61 | 0.577 | inactive
CkIIalpha | DRSC11946 | 0.846 | 0.161 | 1.72 | inactive
CkIIalpha | DRSC40838 | -1.04 | -0.808 | -1.32 | inactive
CG17264 | DRSC00500 | -1.28 | -2.98 | -0.669 | inactive
CG17264 | DRSC29452 | -0.407 | -0.0751 | -1.43 | inactive
CG15408 | DRSC00423 | 0.699 | -0.177 | 0.746 | inactive
SkpA | DRSC18833 | 1.72 | 3.5 | 1.67 | active
SkpA | DRSC25163 | 0.668 | 3.7 | 4.11 | active
Nt5b | DRSC19976 | -0.056 | 0.316 | 0.852 | inactive
Nt5b | DRSC19977 | -0.454 | -0.042 | 0.0676 | inactive
Nt5b | DRSC19978 | 0.774 | -2.15 | 0.313 | inactive
Nt5b | DRSC22588 | -0.361 | -1.42 | 0.688 | inactive
Nt5b | DRSC28223 | 0.488 | 0.303 | 0.168 | inactive
cav | DRSC15995 | 0.392 | 0.664 | 1.09 | inactive
cav | DRSC26206 | -1.05 | -1.12 | 0.0443 | inactive
